# Data from US5055459A, “Selective elimination of malignant cells from bone marrow by bis (acyloxy) propylphosphoramidates” (Board of Regents, The University of Texas, priority 1989, dated 1991).
# Legend:
# [1] = test system: cyclophosphamide-resistant L1210 and P-388 cell-lines; conditions: cited from earlier work
# [2] = test system: L1210 lymphatic leukemia cells; assay: In vitro cytotoxicity to L1210 lymphatic leukemia cells, 72 hr, MTT (Table 2); type: cell-based, murine; conditions: concentration that kills 50% of the cells; 72 hr at 37° C.; concentration range 0.5-20 microgram/ml
structure (smiles),measurement,setting,value
NP(=O)(O)N(CCCl)CCCl,potentiation by aldehyde dehydrogenase inhibitors,[1],no potentiation was observed
same,ED50,[2],18.0 microgram/ml
